Laboratory results taken from US5198552A, “Indole derivative having antiviral, interferon-inducing and immunomodulatory effects” (priority 1991, dated 1993).
Counter-ions that a name gives are not always drawn.

Test system: influenza A virus

CC(N)C12CC3CC(CC(C3)C1)C2 (centres unmarked) [Remantadine, alfa-methyl-1-adamantanemethylamine hydrochloride]
passes from which resistance occurs (influenza A virus in a cell culture): 2-3 passes
virus resistance to the preparation (passivating influenza A virus in a cell culture in presence of the drug, preparation of the invention: 6 passes): there occur the resis-
